A mixed list of measured activities; the numbers were collected in NIAID ChemDB.

Shared fields: growth or infection tests; agent: Semliki Forest virus; method: cytopathic effect; measure: EC50

Blank or dashed fields: not listed here. Conditions beyond the fields shown may differ between rows. ECn: concentration that inhibits the pathogen or its effect by n%.

smiles	cell line	strain	value
OC[C@H]1O[C@@H](c2cncc(Br)c2)[C@@H](O)[C@H]1O	VERO		≥100 µg/mL
Nc1ncnc2c1ncn2[C@@H]1C=C(CO)[C@@H](O)[C@H]1O	VERO		7 µg/mL
CCOP(=O)(NC(C)C(=O)OC)OC[C@H]1O[C@@H](n2ncc(=O)[nH]c2=O)C(O)C1O	VERO	Sicilian	242 µg/mL
NS(=O)(=O)c1ncnc2c1ncn2[C@H]1C[C@H](O)[C@@H](CO)O1			>320 µM
C=CCc1nc(C)n2c(=O)[nH]c(=S)[nH]c12	VERO		>200 µg/mL
Cc1cn([C@@H]2O[C@H](CO)[C@](O)(C(F)(F)F)[C@H]2O)c(=O)[nH]c1=O	VERO		>200 µg/mL
CC(=O)OC[C@H]1O[C@@H](n2ncc(=S)[nH]c2=S)C(OC(C)=O)C1OC(C)=O	VERO	Sicilian	156 µg/mL
N#Cc1cncc([C@H]2O[C@H](CO)[C@@H](O)[C@@H]2O)c1	VERO		≥100 µg/mL
Nc1ncnc2c1ncn2[C@@H]1C=C(CO)[C@@H](O)[C@H]1O	VERO		>40 µg/mL
Cc1cn([C@H]2C/C(=N\O)[C@@H](CO)O2)c(=O)[nH]c1=O	VERO		>200 µg/mL
[N-]=[N+]=N[C@H]1[C@@H](F)[C@H](n2cnc3c(N)ncnc32)O[C@@H]1CO	VERO B		>200 µg/mL
CC=NC(=N)c1nc(-c2ccc(OC)cc2)n(Cc2ccccc2)n1	VERO		>10 µg/mL
Nc1ncnc2c1ncn2[C@@H]1O[C@H](CO)[C@](O)(C(F)(F)F)[C@H]1O	VERO		>200 µg/mL
Nc1nc2c(ncn2CCCC(O)CF)c(=O)[nH]1	VERO		>400 µg/mL
C=C(N=CC)c1nc(-c2ccc(OC)cc2)n(C2O[C@H](CO)[C@@H](O)[C@H](O)[C@H]2O)n1	VERO		>200 µg/mL
NC(=O)c1cncc([C@H]2O[C@H](CO)[C@@H](O)[C@@H]2O)c1	VERO		≥100 µg/mL
Nc1nc2c(ccn2[C@H]2CO[C@@H](CO)C2)c(=O)[nH]1	VERO		>200 µg/mL
Nc1ncnc2c1ncn2[C@@H]1C[C@H](CO)[C@@H](O)[C@H]1O	VERO		2 µg/mL
CC=NC(=N)c1nc(-c2ccc(C)cc2)n(C/C=C/c2ccccc2)n1	VERO		>10 µg/mL
OC[C@H]1O[C@@H](c2cncc(Br)c2)[C@@H](O)[C@@H]1O	VERO		≥100 µg/mL
COCC1=C[C@@H](n2cnc3c(N)ncnc32)[C@H](O)[C@@H]1O	VERO		>400 µg/mL
O=c1cnn([C@@H]2O[C@H](CO)[C@@H](O)[C@H]2O)c(=O)[nH]1	VERO	Sicilian	0.54 µg/mL
C=C(N=CC)c1nc(-c2ccc(C)cc2)n([C@@H]2O[C@H](CO)[C@@H](O)[C@H]2O)n1	VERO		>40 µg/mL
OC[C@H]1O[C@H](c2cncc(Br)c2)[C@@H](O)[C@H]1O	VERO		≥100 µg/mL
CO[C@H](CO)[C@@H](O)CCn1cc(C)c(=O)[nH]c1=O	VERO		>400 µg/mL
CC=NC(=N)c1nc(-c2cccc(OC)c2)n(C/C=C/c2ccccc2)n1	VERO		>40 µg/mL
Cc1cn(CC[C@H](O)CCO)c(=O)[nH]c1=O	VERO		>400 µg/mL
N#Cc1cncc([C@@H]2O[C@H](CO)[C@@H](O)[C@@H]2O)c1	VERO		≥100 µg/mL
Nc1ncnc2c1ncn2C1CC(CO)[C@@H](O)[C@H]1O	VERO		2 µg/mL
Nc1ncnc2c1ncn2CCCC(O)CF	VERO		>400 µg/mL
Nc1nc(Cl)c2ncn([C@H]3CO[C@@H](CO)C3)c2n1	VERO		>400 µg/mL
Nc1ncnc2c1ncn2CC[C@H](O)CCO	VERO		>400 µg/mL
CC(=O)Nc1nc2c(CC(O)CO)ncn2c(=O)[nH]1	VERO		>200 µg/mL
NS(=O)c1ncnc2c1ncn2[C@@H]1O[C@H](CO)[C@@H](O)[C@@H]1O			>320 µM
Nc1ncnc2c1ncn2[C@@H]1C=C(CO)[C@@H](O)[C@H]1O	VERO		≥40 µg/mL
CC(=O)OC[C@H]1O[C@@H](n2ncc(=S)[nH]c2=O)C(OC(C)=O)C1OC(C)=O	VERO	Sicilian	24.8 µg/mL
NSc1ncnc2c1ncn2[C@H]1C[C@H](O)[C@@H](CO)O1			>320 µM
C=C(N=CC)c1nc(-c2cccc(OC)c2)n(C2O[C@H](CO)[C@@H](O)[C@H](O)[C@H]2O)n1	VERO		>200 µg/mL
NC(=S)c1cncc([C@H]2O[C@H](CO)[C@@H](O)[C@@H]2O)c1	VERO		≥100 µg/mL
Cc1nc(CC(O)CO)c2nc[nH]c(=O)n12	VERO		>400 µg/mL
CO[C@H](CO)[C@@H](O)CCn1cnc2c(N)ncnc21	VERO		>400 µg/mL
[N-]=[N+]=N[C@H]1[C@@H](F)[C@H](N2C=CC(N)NC2=O)O[C@@H]1CO	VERO B		>400 µg/mL

A second listing of 2 rows from above:

{"smiles": "CC(=O)OC[C@H]1O[C@@H](n2ncc(=S)[nH]c2=S)C(OC(C)=O)C1OC(C)=O", "cell line": "VERO", "strain": "Sicilian", "value": "156 µg/mL"}
{"smiles": "Nc1nc2c(ncn2CCCC(O)CF)c(=O)[nH]1", "cell line": "VERO", "value": ">400 µg/mL"}